Laboratory results from patent US6780418B1, “Reagents and immunoassay for the detection and quantitative determination of mycothiol and precursors thereof” (The Regents of the University of California, priority 1997, dated 2004).

Assays:
[1] = test system: E. coli; assay: Mycothiol component levels by HPLC (mBBr and AccQ-Fluor labeling); design: species or system Escherichia coli; details: log phase
[2] = test system: S. aureus; assay: as above; design: species or system Staphylococcus aureus; details: log phase
[3] = test system: Mycobacterium smegmatis mc^26; assay: MSH in cell lysates by monobromobimane labeling and HPLC analysis; details: HPLC
[4] = test system: anti-MSH antibody; assay: ELISA of Example 8: biotinylated MSH captured on NeutrAvidin, detected with anti-MSH antibody; type: binding, rabbit
[5] = test system: anti-mycothiol antibody; assay: ELISA of Example 4: thiol bound to maleimide-activated BSA, detected with affinity-purified anti-MSH antibody; type: binding, rabbit; details: pure MSH in buffer
Procedure: Known amounts of pure MSH (typically from 0 to 1 pmol/well) were reacted with maleimide-activated BSA (Pierce); maleimide activation levels were 16-19 mol maleimide per mol BSA. The maleimide-activated BSA was reconstituted to 10 mg/ml and this stock solution stored at −70° C. until needed. The stock solution was diluted to a working concentration of 5 ng/μl just before use and kept chilled on ice. MSH from the concentrated stock solution in 0.1% TFA was diluted into TBS (Tris-buffered saline: 0.1 M Tris, pH 7.3, 0.15 M NaCl, 0.04% NaN3) on ice and the diluted samples (40 μl per well) immediately added to the maleimide-activated BSA (60 μl per well). A “zero” standard consisted of TBS in place of an MSH solution. In practice, 168 μl of thiol standard were added to 252 μl of maleimide-activated BSA solution. Samples of unknown thiol content were reacted with maleimide-activated BSA in the same manner, providing a small excess volume for pipetting of quadruplicate samples of 100 μl per well. […] The plate was read at 405 nm on a microplate reader (Model EL311, Bio-Tek Instruments) that was programmed to automatically subtract blank values read from wells that received only the blocking agent, wash solutions, p-nitrophenyl phosphate, and stop solution. […]

[6] = test system: anti-MSH antibody; assay: ELISA of Example 10: biotinylated MSH captured by anti-MSH antibody prebound via protein A; type: binding, rabbit
[7] = test system: Mycobacterium smegmatis mc^26; assay: MSH in cell lysates by ELISA; details: 40 μl
[8] = 4.8 × 10^6 CFU analyzed, 100 μl

SMILES | Content [1] | Content [2] | further results
CC(=O)N[C@@H](CS)C(=O)O [AcCys, N-acetyl-cysteine] | <0.0006 μmol/g residual dry weight | 0.002 μmol/g residual dry weight | –
CC(=O)N[C@@H](CS)C(=O)N[C@@H]1[C@@H](O)[C@H](O)[C@@H](CO)O[C@@H]1O [AcCys-GlcN, 2-(N-acetyl-L-cysteinyl)amido-2-deoxy-α-d-glucopyranoside] | <0.004 μmol/g residual dry weight | <0.004 μmol/g residual dry weight | –
N[C@@H](CS)C(=O)O [Cys, L-cysteine] | 0.09 μmol/g residual dry weight | 0.35 μmol/g residual dry weight | –
N[C@@H](CS)C(=O)N[C@@H]1[C@@H](O)[C@H](O)[C@@H](CO)O[C@@H]1O [Cys-GlcN, 2-(L-cysteinyl)amido-2-deoxy-α-D-glucopyranoside] | <0.004 μmol/g residual dry weight | <0.03 μmol/g residual dry weight | –
N[C@@H](CS)C(=O)N[C@H]1[C@@H](OC2[C@H](O)[C@H](O)C(O)[C@H](O)[C@H]2O)O[C@H](CO)[C@@H](O)[C@@H]1O (stereo partly drawn) [Cys-GlcN-Ins, 1-D-myo-inosityl-2-(L-cysteinyl)amido-2-deoxy-α-D-glucopyranoside] | <0.004 μmol/g residual dry weight | <0.05 μmol/g residual dry weight | –
N[C@H]1C(O)O[C@H](CO)[C@@H](O)[C@@H]1O (stereo partly drawn) [GlcN, D-glucosamine] | 0.024 μmol/g residual dry weight | 0.027 μmol/g residual dry weight | –
N[C@H]1[C@@H](OC2[C@H](O)[C@H](O)C(O)[C@H](O)[C@H]2O)O[C@H](CO)[C@@H](O)[C@@H]1O (stereo partly drawn) [GlcN-Ins, 1-D-myo-inosityl-2-amino-2-deoxy-α-D-glucopyranoside] | <0.001 μmol/g residual dry weight | <0.001 μmol/g residual dry weight | –
S [H2S] | 1.7 μmol/g residual dry weight | 0.36 μmol/g residual dry weight | –
CC(=O)N[C@@H](CS)C(=O)N[C@H]1[C@@H](OC2[C@H](O)[C@H](O)C(O)[C@H](O)[C@H]2O)O[C@H](CO)[C@@H](O)[C@@H]1O (stereo partly drawn) [MSH, 1-D-myo-inosityl-2-(N-acetyl-L-cysteinyl)amido-2-deoxy-α-D-glucopyranoside] | <0.1 μmol/g residual dry weight | <0.04 μmol/g residual dry weight | pmol MSH ([3]; 3.0 × 10^5 CFU analyzed, 50 μl): 4 pmol; pmol/10^6 CFU ([3]; 3.0 × 10^5 CFU analyzed, 50 μl): 13.3 pmol/10^6 CFU; pmol MSH [3, 8]: 67 pmol; pmol/10^6 CFU [3, 8]: 14.0 pmol/10^6 CFU; detection limit [4]: at least 5 fmol; useful range ([4]; dependent primarily on development time): 5 to 300 fmol; detection limit [5]: at least 0.1 pmol; useful range [5]: 0.1 to 1 pmol; detection limit [6]: at least 0.3 fmol; working range ([6]; primarily dependent on development time): 0.3 to 300 fmol; pmol MSH ([7]; 3.9 × 10^4 CFU analyzed): 0.40 ± 0.04 (4) pmol; pmol/10^6 CFU ([7]; 3.9 × 10^4 CFU analyzed): 10.2 ± 1.0 (4) pmol/10^6 CFU; pmol MSH ([7]; 7.7 × 10^3 CFU analyzed): 0.073 ± 0.011 (4) pmol; pmol/10^6 CFU ([7]; 7.7 × 10^3 CFU analyzed): 9.4 ± 1.5 (4) pmol/10^6 CFU; pmol MSH ([7]; 7.7 × 10^4 CFU analyzed): 1.02 ± 0.08 (4) pmol; pmol/10^6 CFU ([7]; 7.7 × 10^4 CFU analyzed): 13.3 ± 1.0 (4) pmol/10^6 CFU
